Pooled drug test results. Numbers come from NIAID ChemDB, via PubChem.

Conditions beyond the fields shown may differ between rows. An empty or dashed field is not shown. A number after MIC or MFC names an inhibition level or a share of isolates. MIC bound: limit read from a one-dose screen. ICn is the concentration giving n% inhibition. ECn: concentration that inhibits the pathogen or its effect by n%. Inhibition is in % at the dose shown (toxicity tests: loss of growth or viability).

compound | endpoint | organism | protein | test | cell line | tested at | method | strain or isolate | value
C#CC[C@@H](C(=O)N[C@H](/C=C/C(=O)OCC)C[C@@H]1CCNC1=O)n1cccc(NC(=O)c2cc(C)on2)c1=O | EC50 | Rhinovirus | - | culture | H1-HELA | - | cytopathic effect / XTT | Serotype 38 | 0.052 µM
O=C(NNc1ccccc1)C(O)C(O)C(O)C(O)CO | inhibition | Mycobacterium tuberculosis | - | culture | - | 12.5 µg/mL | BACTEC | H37Rv | -2%
O=C(O)CNC(=O)Cc1ccccc1 | MIC | Mycobacterium tuberculosis | - | culture | - | - | - | H37Rv | >100 µg/mL
O=C1CC(c2ccccc2O)Oc2ccccc21 | inhibition | Mycobacterium tuberculosis | - | culture | - | 12.5 µg/mL | - | H37Rv | 1%
Cc1cc2c(=O)cc(-c3ccccc3)oc2c(C(N)=O)c1C | inhibition | Mycobacterium tuberculosis | - | culture | - | 12.5 µg/mL | BACTEC | H37Rv | -6%
Clc1ccc(N2CCN(c3cncc(-c4cccc5ccccc45)n3)CC2)cc1Cl | IC50 | Cytomegalovirus | UL97 kinase | target | - | - | - | - | <100 µM
CCOC(c1ccccc1)c1ccccc1 | MIC | Mycobacterium tuberculosis | - | culture | - | - | - | H37Rv | 100 µg/mL
COC(=O)C(=O)C(C(=O)C(=O)Nc1ccc(Cl)c(Cl)c1)c1nc2ccc(C(=O)c3ccccc3)cc2[nH]c1=O | MIC bound | Mycobacterium tuberculosis | - | culture | - | - | BACTEC | H37Rv | >12.5 µg/mL
CN(C)CCCCCCCCOc1ccccc1 | MIC | Mycobacterium tuberculosis | - | culture | - | - | - | H37Rv | >100 µg/mL
CCCCCCCCCCCCCCCCS(=O)(=O)N(/N=c1\sc2ccccc2n1C)C(=O)OCC | MIC bound | Mycobacterium tuberculosis | - | culture | - | - | BACTEC | H37Rv | >12.5 µg/mL
Nc1ccc2cc(S(=O)(=O)O)cc(S(=O)(=O)O)c2c1N | MIC | Mycobacterium tuberculosis | - | culture | - | - | - | H37Rv | >100 µg/mL
CCO/N=C/c1ccc(OCCC2CCN(c3ccc(C)nn3)CC2)cc1 | EC50 | Rhinovirus | - | culture | KB | - | neutral red | 353 (ICAM-1 receptor group 13) | 0.109 µM
COc1ccc(C2CC(=O)c3ccc(OC)cc3O2)cc1 | EC50 | Mycobacterium tuberculosis | - | culture | - | - | - | - | >12.5 µg/mL
CC(N=c1cc2n(-c3ccc(Cl)cc3)c3ccccc3nc-2cc1Nc1ccc(Cl)cc1)c1ccccc1 | MIC | Mycobacterium tuberculosis | - | culture | - | - | - | EMB-R | 0.2 µg/mL
COc1cc(Cc2ccc(N)c(OC)c2)ccc1N | MIC | Mycobacterium tuberculosis | - | culture | - | - | - | H37Rv | 100 µg/mL
COc1ccc(C2CC(=O)c3ccc(I)cc3O2)cc1 | EC50 | Mycobacterium tuberculosis | - | culture | - | - | - | - | >12.5 µg/mL
FC(F)(F)c1cccc(N2CCN(c3cncc(-c4ccoc4)n3)CC2)c1 | inhibition | Cytomegalovirus | UL97 kinase | target | - | 10 µM | - | - | >15%
COc1ccc(CNc2nnc(NC(=O)c3ccc4c(c3)C(=O)OC4=O)s2)cc1OC | IC50 | Human cytomegalovirus | Polymerase | target | - | - | - | - | <25 µM
COc1cc(-c2ccc(N=Nc3ccc4c(S(=O)(=O)O)cc(S(=O)(=O)O)c(N)c4c3O)c(OC)c2)ccc1N=Nc1ccc2c(S(=O)(=O)O)cc(S(=O)(=O)O)c(N)c2c1O | inhibition | Adenovirus | - | culture | Human amnion AV3 cells | 10 µg/mL | cytopathic effect | TYPE 3 | 0%
CCOC(=O)CCCCC1SCC(C(=O)OCC)C1=O | MIC | Mycobacterium tuberculosis | - | culture | - | - | - | H37Rv | 100 µg/mL
CCCCCCCC/C=C/CCCCCCCC(=O)Nc1nnc(NCCNC(C)=O)s1 | inhibition | Human cytomegalovirus | Polymerase | target | - | 25 µM | - | - | 69.2%
CCOC(=O)NC(=O)c1cn(CCCOC(=O)CCCCCCCCC(=O)OCCCn2cc(C(=O)NC(=O)OCC)c(=O)[nH]c2=O)c(=O)[nH]c1=O | inhibition | Mycobacterium tuberculosis | - | culture | - | 6.25 µg/mL | resazurin | H37Rv | 20%
O=C1c2c(O)cc(O)cc2OC(c2ccc(O)cc2)C1c1c(O[C@@H]2O[C@H](CO)[C@@H](O)[C@H](O)[C@H]2O)cc(O)c2c(=O)cc(-c3ccc(O)cc3)oc12 | EC50 | Mycobacterium tuberculosis | - | culture | - | - | - | H37Rv | >12.5 µg/mL
CC(C)(C)c1ccc(-c2cncc(N3CCN(c4ccccc4)CC3)n2)cc1 | inhibition | Cytomegalovirus | UL97 kinase | target | - | 10 µM | - | - | >15%
CCC1C[N+]2=C(c3cc(OC)c(OC)cc3CC2)c2c1cc1n2CCc2cc(OC)c(OC)cc2-1 | MIC | Mycobacterium tuberculosis | - | culture | VERO | - | - | H37Rv | 2 µg/mL
O=C(Nc1ccccc1)c1cccc(S(=O)(=O)Nc2ccccc2)c1 | MIC | Mycobacterium tuberculosis | - | culture | - | - | - | H37Rv | >100 µg/mL
NNC(=O)C(=O)N/N=C(\CCC(=O)NCCc1ccccc1)CC(=O)c1ccccc1 | inhibition | Mycobacterium tuberculosis | - | culture | - | 12.5 µg/mL | BACTEC | H37Rv | 4%
CCCC(C)C1(CC)C(=O)NC(=S)NC1=O | MIC | Mycobacterium tuberculosis | - | culture | - | - | - | H37Rv | >100 µg/mL
O=c1oc2cc(-n3c(=O)c4ccccc4c4ccccc4c3=O)ccc2c2ccccc12 | inhibition | Mycobacterium tuberculosis | - | culture | - | 12.5 µg/mL | BACTEC | H37Rv | 1%
O=c1cc[nH]c2cc(Cl)ccc12 | MIC | Mycobacterium tuberculosis | - | culture | - | - | - | H37Rv | 100 µg/mL
O=C(c1ccncc1)n1nc(-c2ccccc2)c(N=Nc2nc3ccc([N+](=O)[O-])cc3s2)c1-c1ccccc1 | inhibition | Mycobacterium tuberculosis | - | culture | - | 6.25 µg/mL | resazurin | H37Rv | 99%
Cc1cc(-c2ccc(N=Nc3c(N)c(S(=O)(=O)O)cc4cc(S(=O)(=O)O)ccc34)c(C)c2)ccc1N=Nc1c(N)ccc2cc(S(=O)(=O)O)ccc12 | inhibition | Adenovirus | - | culture | Human amnion AV3 cells | 5 µg/mL | cytopathic effect | TYPE 3 | 0%
CC1CCOn2c1nc1ccccc1c2=O | inhibition | Mycobacterium tuberculosis | - | culture | - | 12.5 µg/mL | BACTEC | H37Rv | -2%
O=C(/C=C/c1ccccc1)Nc1nnc(NCCCNC2CCCCC2)s1 | IC50 | Human cytomegalovirus | Polymerase | target | - | - | - | - | <25 µM
Nc1ccc(S(=O)(=O)[O-])c2c(S(=O)(=O)[O-])ccc(O)c12 | inhibition | Rhinovirus | - | culture | Human amnion AV3 cells | 10 µg/mL | cytopathic effect | - | 0%
O=[As]([O-])(O)c1ccc(NCCO)cc1.[Na+] | MIC | Mycobacterium tuberculosis | - | culture | - | - | - | H37Rv | >100 µg/mL
Nc1ccc2c(O)cc(S(=O)(=O)[O-])cc2c1S(=O)(=O)[O-] | inhibition | Adenovirus | - | culture | Human embryonic lung cells | 10 µg/mL | cytopathic effect | TYPE 3 | 50%
CCCCN(CCCC)c1ccc(OC(=O)c2ccccc2)cc1O | MIC | Mycobacterium tuberculosis | - | culture | - | - | - | H37Rv | >100 µg/mL
Fc1cc(-c2cncc(N3CCN(c4ccccc4F)CC3)n2)ccc1-c1ccccc1 | inhibition | Cytomegalovirus | UL97 kinase | target | - | 10 µM | - | - | >15%
O=C(O)c1cc(S(=O)(=O)[O-])ccc1O | inhibition | Adenovirus | - | culture | Human amnion AV3 cells | 50 µg/mL | cytopathic effect | TYPE 3 | 25%
COc1cc(Br)c2nsnc2c1 | inhibition | Mycobacterium tuberculosis | - | culture | - | 12.5 µg/mL | BACTEC | H37Rv | -12%
O=C1C(O)=C(Cl)C(=O)C(O)=C1Cl | MIC | Mycobacterium tuberculosis | - | culture | - | - | - | H37Rv | >100 µg/mL
Cc1ccc(S(=O)(=O)N/N=C/c2oc(-c3ccccc3Cl)c(-c3ccccc3Cl)c2[N+](=O)[O-])cc1 | MIC bound | Mycobacterium tuberculosis | - | culture | - | - | BACTEC | H37Rv | >12.5 µg/mL
CCOC(=O)c1c(O)cc2ccccc2c1O | MIC | Mycobacterium tuberculosis | - | culture | - | - | - | H37Rv | 100 µg/mL
CN(NC(=O)C(=O)NCc1ccco1)C(=O)Nc1ccccc1 | inhibition | Mycobacterium tuberculosis | - | culture | - | 12.5 µg/mL | BACTEC | H37Rv | 0%
O=C(/C=C/c1ccccc1)c1cc(-c2ccccc2)ccc1O | EC50 | Mycobacterium tuberculosis | - | culture | - | - | - | H37Rv | <12.5 µg/mL
O=c1ccc2c(ccc3ncccc32)o1 | MIC bound | Mycobacterium tuberculosis | - | culture | - | - | BACTEC | H37Rv | >12.5 µg/mL
Cl.Nc1nc(Cl)nc(NCCCN2CCCCC2)n1 | MIC | Mycobacterium tuberculosis | - | culture | - | - | - | H37Rv | >100 µg/mL
CN(CC(O)C(O)CN(C)C(=S)[S-])C(=S)[S-].[K+].[K+] | MIC bound | Mycobacterium tuberculosis | - | culture | - | - | BACTEC | H37Rv | >12.5 µg/mL
CCOC(=O)Nc1csc(CCCCC(=O)O)c1NC(=O)c1ccccc1 | MIC | Mycobacterium tuberculosis | - | culture | - | - | - | H37Rv | 100 µg/mL
CC(C)C[C@H](NC(=O)[C@H](Cc1ccccc1)NC(=O)CNC(=O)CNC(=O)[C@@H](N)Cc1ccc(O)cc1)C(=O)O | MIC bound | Mycobacterium tuberculosis | - | culture | - | - | BACTEC | H37Rv | >12.5 µg/mL
Nc1c(I)cc(I)cc1I | MIC | Mycobacterium tuberculosis | - | culture | - | - | - | H37Rv | 100 µg/mL
CN(C)CC(O)c1ccc2c(c1)oc1ccccc12 | inhibition | Mycobacterium tuberculosis | - | culture | - | 12.5 µg/mL | BACTEC | H37Rv | 3%
O=C(Nc1nnc(NCc2cccc3ccccc23)s1)c1cccc([N+](=O)[O-])c1 | IC50 | Human cytomegalovirus | Polymerase | target | - | - | - | - | >25 µM
C[C@H](Cc1ccc(O)c(O)c1)[C@@H](C)Cc1ccc(O)c(O)c1 | MIC50 | Candida albicans | - | culture | - | - | broth dilution | CCC 126-2000 | 125 µg/mL
COc1ccc(/C=C/C(=O)c2ccc(Br)cc2O)cc1 | EC50 | Mycobacterium tuberculosis | - | culture | - | - | - | - | >12.5 µg/mL
Nc1cc(S(=O)(=O)[O-])cc2cc(S(=O)(=O)[O-])ccc12 | inhibition | Herpes simplex virus | - | culture | Human amnion AV3 cells | 5 µg/mL | cytopathic effect | - | 0%
NC(=O)Cc1cccs1 | MIC | Mycobacterium tuberculosis | - | culture | - | - | - | H37Rv | >100 µg/mL
CCCCCCCC/C=C/CCCCCCCC(=O)Nc1nnc(NC2CC2)s1 | IC50 | Human cytomegalovirus | Polymerase | target | - | - | - | - | <25 µM
Cc1ccc(N2CCN(c3cncc(-c4ccc(CO)cc4)n3)CC2)c(C)c1 | inhibition | Cytomegalovirus | UL97 kinase | target | - | 10 µM | - | - | >15%
CC1(C)C(=O)C=C(O)C=C1O | MIC | Mycobacterium tuberculosis | - | culture | - | - | - | H37Rv | >100 µg/mL
COc1cccc(N2CCN(c3cncc(-c4ccc(C(F)(F)F)cc4)n3)CC2)c1 | IC50 | Cytomegalovirus | UL97 kinase | target | - | - | - | - | <10 µM
CCOC(=O)C1NC(C(=O)OCC)C(=O)C1=O | MIC bound | Mycobacterium tuberculosis | - | culture | - | - | resazurin | H37Rv | >6.25 µg/mL
CCCCCCCCCCCC(=O)OCC(COC(=O)CCCCCCCCCCC)OC(=O)CCCCCCCCCCC | MIC | Mycobacterium tuberculosis | - | culture | - | - | - | H37Rv | >100 µg/mL
O=C(Nc1nnc(NCCCNC2CCCCC2)s1)c1c(Cl)cccc1Cl | IC50 | Human cytomegalovirus | Polymerase | target | - | - | - | - | <25 µM
O=C1c2ccccc2C(=O)c2sc(Nc3cc(Cl)ccc3Cl)nc21 | inhibition | Mycobacterium tuberculosis | - | culture | - | 12.5 µg/mL | BACTEC | H37Rv | 100%
Cc1cc(OCC(=O)O)cc(C)c1Cl | MIC | Mycobacterium tuberculosis | - | culture | - | - | - | H37Rv | 50 µg/mL
Fc1ccc(N2CCCCC2)c(NC(=S)c2ccncc2)c1 | inhibition | - | Pyk2 | host protein | - | 10 µM | kinase activity | - | 11%